Assay results as given in article PMC3334931, “Characterization of the Single Stranded DNA Binding Protein SsbB Encoded in the Gonoccocal Genetic Island” (PLoS ONE, 2012).
Construct, isoform or probe ends are uncertain for at least one entry. For some of these results: The comparison behind a weaker result is the experiment's own reference, which may not be listed here. At least one verdict rests on a figure or table, not on a statement of the authors. Tags and fusion partners may be left off the protein sequences shown.

Columns and labels:
[1] = target: T1, OneSTrEP-SsbB (Neisseria gonorrhoeae MS11) (UniProt Q5EP75); assay: EMSA; conditions: no difference from native, EMSA: SBA buffer (10 mM NaOH, 2 mM EDTA, boric acid to pH 7.5), optional 10 mM MgCl2 and/or NaCl up to 500 mM, 4 C 15 min, recombinant protein, residues 1-143, protein details: N-terminal OneSTrEP, single-stranded DNA
T1 sequence (looked up): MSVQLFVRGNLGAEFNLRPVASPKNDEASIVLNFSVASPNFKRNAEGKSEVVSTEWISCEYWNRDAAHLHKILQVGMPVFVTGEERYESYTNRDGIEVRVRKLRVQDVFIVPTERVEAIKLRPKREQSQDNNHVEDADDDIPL

[2] = target: T2, His-SsbB (Neisseria gonorrhoeae MS11) (UniProt Q5EP75); assay: EMSA; conditions: lower affinity than native, EMSA: SBA buffer (10 mM NaOH, 2 mM EDTA, boric acid to pH 7.5), optional 10 mM MgCl2 and/or NaCl up to 500 mM, 4 C 15 min, recombinant protein, residues 1-143, protein details: N-terminal 10xHis, single-stranded DNA
T2 sequence (looked up): T1 sequence (looked up)

| Sequence | binding result ([1]; label: 5' 32P) | binding result ([2]; label: 5' 32P) | binding result ([1]; label: 5' Cy3) | binding result ([2]; label: 5' Cy3) |
| --- | --- | --- | --- | --- |
| TTTTTTTTTTTTTTTTTTTTTTTTTTTTTTTTTTTTTTTTTTTTTTTTTTTTTTTTTTTTTTTTTTTTTTTTTTT [32P-dT75] | binds | binds more weakly |  |  |
| TTTTTTTTTTTTTTTTTTTTTTTTTTTTTTTTTTTTTTTTTTTTTTTTTTTTTTTTTTTTTTTTTTTTTTTTTTT [Cy3-dT75] |  |  | binds | binds more weakly |
